The record followed here is patent EP0492136A2, “Retroviral protease inhibitors derived from 3-chloro-2-chloromethyl-1-propene” (AMERICAN CYANAMID COMPANY, priority 1990, dated 1992).

For assay [1], the system named is HIV-1 strain IIIB. Nature of the assay: inhibition of growth of HIV-1 in MT-2 cells, CPE (cell death) measured with MTT dye. It is filed as cell-based. The note with it: T lymphoid MT-2 cell lines, after 5 days. From the text: In Table 3 data is shown for the ability of these compounds to inhibit growth of HIV-1 strain IIIB in T lymphoid MT-2 cell lines. The endpoint of these experiments after 5 days is CPE (cell death) measured with the metabolic MTT dye.

For assay [2], the target named is HIV-1 protease (Human immunodeficiency virus type 1 group M subtype B, UniProt P04585). Nature of the assay: in vitro inhibition of HIV-1 protease (octapeptide substrate cleavage, HPLC). As to conditions: substrate H-Val-Ser-Gln-Asn-Tyr-Pro-Ile-Val-OH. The method, then: HIV-1 protease is available for purchase from Medigenics, 701 Mercy Rd., Suite 420, Omaha, Nebraska 68106. Protease activity is assayed using the octapeptide H-Val-Ser-Gln-Asn-Tyr-Pro-Ile-Val-OH as the substrate. Cleavage of the substrate is quantitated by measuring the production of H-Val-Ser-Gln-Asn-Tyr-OH by HPLC analysis by the method described by Tomaselli et al., (cited previously).

`O=C(N[C@H]1CCCC[C@@H]1NC(=O)[C@H](Cc1ccccc1)CC(O)C[C@@H](Cc1ccccc1)C(=O)N[C@H]1CCCC[C@@H]1NC(=O)c1ccc2ccccc2n1)c1ccc2ccccc2n1`: the results for the “% Inhibition at Concentration” value in assay [1] (2.5 µg/ml) and in assay [1] (.625 µg/ml) were 104.1% and 11.3%, respectively. In assay [2], this compound registered an IC50 of 1 nM.
